Source: PubChem BioAssay AID1259414 (Drosophila RNAi Screening Center, 2018)

Screen: 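Fly genes that alter Wolbachia amount inside host cells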 (primary screen)
System: Drosophila JW18 cells infected with Wolbachia
Reagents: long dsRNA against Drosophila genes, 0.25 µg dsRNA per well of a 384-well plate
Time to read-out: 5 days
Challenge: cells persistently infected with Wolbachia before knock-down; no added drug
Read-out: 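Imaged fluorescence in situ signal for Wolbachia 23S rRNA per DAPI-counted host cell, given as a robust z-score within each plate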
Direction: Wolbachia per cell robust z: higher = more Wolbachia per host cell than the plate typical
Hit rule: 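Active if absolute robust z reaches 1.5 in two or more of three replicates, leaving out multi- or no-target dsRNAs, genes unexpressed in JW18 and A1 wells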
In all, the deposit lists about 24,000 reagents; this is a random part of those with a known target gene and a result. In the full data, about 1,210 (5%) got an active call. 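Inactive calls also include excluded dsRNAs with several or no targets, genes unexpressed in JW18, and well A1, regardless of score.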 The numbers tell different reagents against one gene apart.

CG14245 (GeneID 3772449) #1
- Wolbachia per cell robust z, rep 1: -4.08
- Wolbachia per cell robust z, rep 2: 0.372
- Wolbachia per cell robust z, rep 3: 1.24
- outcome: inactive

CG14245 (GeneID 3772449) #2
- Wolbachia per cell robust z, rep 1: -0.33
- Wolbachia per cell robust z, rep 2: 0.522
- Wolbachia per cell robust z, rep 3: -0.399
- outcome: inactive

Bbd (GeneID 37314)
- Wolbachia per cell robust z, rep 1: 0.309
- Wolbachia per cell robust z, rep 2: -1.77
- Wolbachia per cell robust z, rep 3: -1.22
- outcome: inactive

CG16888 (GeneID 34789)
- Wolbachia per cell robust z, rep 1: -0.135
- Wolbachia per cell robust z, rep 2: 0.094
- Wolbachia per cell robust z, rep 3: 1.12
- outcome: inactive

CG10950 (GeneID 36942)
- Wolbachia per cell robust z, rep 1: -0.271
- Wolbachia per cell robust z, rep 2: -1.41
- Wolbachia per cell robust z, rep 3: -1.68
- outcome: inactive

Thor (GeneID 33569)
- Wolbachia per cell robust z, rep 1: 0.666
- Wolbachia per cell robust z, rep 2: 0.229
- Wolbachia per cell robust z, rep 3: -0.57
- outcome: inactive

CG11581 (GeneID 32362)
- Wolbachia per cell robust z, rep 1: -4.12
- Wolbachia per cell robust z, rep 2: 0.0755
- Wolbachia per cell robust z, rep 3: -0.0593
- outcome: inactive

CG31806 (GeneID 261615) #1
- Wolbachia per cell robust z, rep 1: -0.123
- Wolbachia per cell robust z, rep 2: -3.32
- Wolbachia per cell robust z, rep 3: -0.797
- outcome: inactive

CG31806 (GeneID 261615) #2
- Wolbachia per cell robust z, rep 1: 0.0579
- Wolbachia per cell robust z, rep 2: 0.473
- Wolbachia per cell robust z, rep 3: 0.959
- outcome: inactive

SCaMC (GeneID 39415) #1
- Wolbachia per cell robust z, rep 1: 0.525
- Wolbachia per cell robust z, rep 2: -0.665
- Wolbachia per cell robust z, rep 3: -0.156
- outcome: inactive

SCaMC (GeneID 39415) #2
- Wolbachia per cell robust z, rep 1: 0.427
- Wolbachia per cell robust z, rep 2: 0.458
- Wolbachia per cell robust z, rep 3: 0.1
- outcome: inactive

SCaMC (GeneID 39415) #3
- Wolbachia per cell robust z, rep 1: -1.09
- Wolbachia per cell robust z, rep 2: -0.0965
- Wolbachia per cell robust z, rep 3: -0.128
- outcome: inactive

A run of entries from the list above, as a working copy:
Bbd (GeneID 37314)
- Wolbachia per cell robust z, rep 1: 0.309
- Wolbachia per cell robust z, rep 2: -1.77
- Wolbachia per cell robust z, rep 3: -1.22
- outcome: inactive

CG16888 (GeneID 34789)
- Wolbachia per cell robust z, rep 1: -0.135
- Wolbachia per cell robust z, rep 2: 0.094
- Wolbachia per cell robust z, rep 3: 1.12
- outcome: inactive
